The source of these data is patent publication US20200207841A1 (MIT, published 2020).

Assay [1] has as its target T1, EDIII-DV2 (Dengue virus serotype 2 (DV2), UniProt P14337 581-673).
T1 construct: also called EDIII of DV2; EDIII-DVII
T1 chain: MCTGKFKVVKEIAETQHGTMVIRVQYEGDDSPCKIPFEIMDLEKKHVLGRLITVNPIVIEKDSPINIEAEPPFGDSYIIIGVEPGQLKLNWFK
Kind of assay: competition ELISA, affinity in solution at equilibrium. Background: An ELISA detects its analyte on a solid surface through an enzyme-linked reagent.

The target in assay [2] is T1, EDIII-DV2. Kind of assay: SPR (Biacore 3000): antibody captured on anti-human IgG Fc, EDIII as analyte. Background: Surface plasmon resonance follows binding to a sensor surface in real time, without labels.

B1: VH_G27P (antibody, V domains shown)
VH: VKLLEQSGAELVKPGASVRLSCTASPFNIKDTYMSWVKQRPEQGLEWIGRIDPENGDTKYDPKFQGKATITADTSSNTAYLHLSSLTSGDTAVYYCSRGWEGFAYWGQGTLVTVSA
VL: ELVMTQTPASLAVSLGQRATISCRASENVDKYGNSFMHWYQQKAGQPPKLLIYRASELQWGIPARFSGSGSRTDFTLTINPVEADDVATYFCQRSNEVPWTFGGGTKLEIK
notes: also called 4E5-G27P; copies: 2 + 2
Regarding B1, the Kd with EDIII-DV2 [1] turned out to be 0.3 nM. This counts as sub-nanomolar.

B2: VH_G27A (antibody, V domains shown)
VH: VKLLEQSGAELVKPGASVRLSCTASAFNIKDTYMSWVKQRPEQGLEWIGRIDPENGDTKYDPKFQGKATITADTSSNTAYLHLSSLTSGDTAVYYCSRGWEGFAYWGQGTLVTVSA
VL: ELVMTQTPASLAVSLGQRATISCRASENVDKYGNSFMHWYQQKAGQPPKLLIYRASELQWGIPARFSGSGSRTDFTLTINPVEADDVATYFCQRSNEVPWTFGGGTKLEIKR
B2 returned a koff in the assay with EDIII-DV2 [2] of 0.000419 s⁻¹.

B3: VH_A25_del (antibody, V domains shown)
VH: VKLLEQSGAELVKPGASVRLSCTSGFNIKDTYMSWVKQRPEQGLEWIGRIDPENGDTKYDPKFQGKATITADTSSNTAYLHLSSLTSGDTAVYYCSRGWEGFAYWGQGTLVTVSA
VL: ELVMTQTPASLAVSLGQRATISCRASENVDKYGNSFMHWYQQKAGQPPKLLIYRASELQWGIPARFSGSGSRTDFTLTINPVEADDVATYFCQRSNEVPWTFGGGTKLEIK
notes: also called 4E5-del-25; copies: 2 + 2
In the case of B3, the affinity in the assay with EDIII-DV2 [2], expressed as Kd, was 0.0664 nM.

By Kd is commonly meant the equilibrium constant for the complex coming apart. Read a low Kd as higher affinity. For orientation: koff means the first-order rate constant of dissociation. Lower therefore signals slow dissociation.
